Results reported in the supplement of paper PMC9931576.
Human monoclonal antibodies against the spike receptor-binding domain (heavy:light variable regions). IC50 against pseudoviruses bearing the spike of naturally observed variants; lower = stronger; >10 µg/ml means not reached at the top dose. No active / inactive call. The stated detection limit is 0.0005 µg/ml; values near or below 0.001 µg/ml lie at the floor of the assay.

B1: BD56-1629 (protein)
chain 1: EVQLVQSGAEVKKPGESLKISCQVSGYYFTSYWVGWVRQMPGKGLELMGIIFPGDSDTRYSPSFQGQVTISADKSINTAYLQWSSLKASDTAMYYCAITDSGSYYPFDYWGQGTLVTVSS
chain 2: DIQMTQSPSSLSASIGDRVTITCRASQSISSYLNWYQQKPGKAPKLLIYAASSLPSGVPSRFSGSGSGTDFTLTISSLQPGDYATYYCQQSYSMSWTFGQGTKVEIK
B2: BD56-1607 (protein)
chain 1: QLQLQESGPGLVKPSETLSLTCTVSGGSISSSSYYWGWIRQPPGKGLEWIGSVFYSGITYYSPSLKSRVTISADTSKNQFSLRLSSVTAADTAVYYCARDVKSFAVPAARSFDYWGQGTLVTVSS
chain 2: QSALTQPASVSGSPGQSITISCTGTSSDVGTYDLVSWYQQHPGKVPKLMIYEVNKRPSGVSHRFSGSKSGNTASLTISGLQAEDEADYYCFSYAGIRIFGGGTKLTVL
B3: BD56-1625 (protein)
chain 1: EVQLVESGGGLVQPGRSLRLSCAASGFTFGDHAMHWVRQAPGKGLEWVSGISWNSGGIDYADSVKGRFTISRDNSKSSLYLQMNSLRAEDTAFYYCARDSFGEQQLLYGLDVWGQGTTVTVSS
chain 2: DIQMTQSPSSLSASVGDRVTITCRASQTISTYLNWYQQKPGKAPKLLIYAASNLQSGVPSRFSGSGSGTDFTLTISSLQPEDFATYYCQQSYSTPATFGGGTKVEIK
B4: BD56-1591 (protein)
chain 1: QEQLMQSGAEVKKPGSSVKVSCKASGGTFSSYSFSWVRQAPGQGLEWMGGIIPLLDTATYAQKFQGRVTITADELTSTAYMDLSSLRSDDTAVYFCARTPPYASGNFYPNYFDSWGQGTLVTVSS
chain 2: DIVMTQSPDSLALSLGERATISCKSSQSVLSSANNKNYLAWYQQKRGQPPKLLIYWASTRESGVPHRFSGSGSGTDFTLTIGSLQAADVAVYYCQQYYSSPYTFGQGTKLEIK
B5: BD56-1608 (protein)
chain 1: EVQLQESGPGLVKPSQTLSLTCTVSGGSISGGGYYWSWLRQHPGKGLEWIGYIHYSGTTYYNPSLKSRVSISVDTSKNQFSLRLTSMTAADTAVYYCARVGDDDYFDSWGQGTLVIVSS
chain 2: EIVLTQSPATLSLSPGERATLSCRASQSISTYLAWYQQTRGQAPRLLIYDASYRATGIPVRFSGSGSGTDFTLTISSLEPEDFAVYYCQQRYNWPPITFGQGTRLEIK
B6: COV2-2955 (protein)
chain 1: QVQLVESGGGVVQPGRSLRLSCAASGFTFVTSGIHWVRQAPGKGLEWVAVISYDGSNKYYADSVKGRFTISRDNSKNTLYLQMNSLRAEDTAVYYCAKGGPNKEVLYFGELLDYGMDVWGQGTTVTVSS
chain 2: DIVMTQTPLSLSVTPGQPASFSCKSSQSLLHSDGKTYLYWYLQKPGQSPQLLIYAVSNRFSGVPDRFSGSGSGTDFTLKISRVEAEDVGVYYCMQSIQLPYTFGQGTKLEIK
B7: COV2-2479 (protein)
chain 1: QVQLVQSGAEVKKPGSSVKVSCKTSGDTSSSYTVGWVRQAPGQGLEWMGRIIPILGIAYSAQKFQGRLTITADKSTSTSYMELSSLRSEDTAVYYCARGVVAATPGWFDPWGQGTLVTVSS
chain 2: EIVMTQSPATLSVSPGERVTLSCRASQSVSSNLAWYQQKPGQAPRLLIYGASTRATGIPARFSGGGSGTEFTLTISSLQSEDFAVYYCQQYNNFLTFGGGTKVEIK
B8: BD56-1615 (protein)
chain 1: QLQLQASGPGLVKPSETLSLTCTVSGGSISSTTHFWGWIRQPPGKGLEWIGSIFYSGRTHYTPSLKSRVAMSVDTSKNQVSLRLRSVTAADTAVYYCARLVDVGVAGTSGYYFDYWGQGTLVTVSS
chain 2: SYVLTQPPSVSVAPGKTARITCEENNIGSKNVHWYQQKPGQAPVLVVYDDSDRPSGIPERFSGSNAGNTATLTISRVEAGDEADYYCQVWDSSSDWVFGGGTKLTVL
B9: BD56-1595 (protein)
chain 1: EVQLVQSGAEVKKAGESLKISCKGSGYSFISNWIAWVRQKPGKGLEWMGIIYPGDSDTRYSPSFQGQVTLSADKSISTAYLQWNSLKASDTAMYYCARLYDYVGFDPWGRGTLVTVSS
chain 2: SSELTQDPAVSVALGQTIRITCQGDSLRSYYASWYQQRPRQAPVLVIYDKDKRPSGIPDRFSGSSSGNTASLTITGAQAEDEADYYCNSRDNSDYHFVFGTGTKVTVL
B10: BD56-1612 (protein)
chain 1: QVTLRESGPALVKPTQTLTLTCTFSAFSLSTNGMCVTWIRQPPGKALEWLARIDWDDDKFYSTSLKTRLTISKDTSKNQVVLTMTNMDPVDTATYYCARGRLGGFDSYLDYWGQGTLVTVSS
chain 2: QSVLTQPPSASGTPGQRVTVSCSGSSSNIGSNTADWYQQLPGTAPKLLIYTNDQRPSGVPDRFSGSKSGTSASLAISGLQSEDEADYFCAAWDDSLDVYVFGTGTKVTVL
B11: BD56-1618 (protein)
chain 1: EVQLVQSGPEVKKPGSSVRVSCKASGGTFGSNTITWVRQAPGQGLEWMGRVIPILDIPTYAQEFQGRITVTADTSTSTAYMELSGLTSEDTAVYYCARSFGGTSGRPYFYMDVWGTGTAVTVSS
chain 2: DTQMTQSPSTLSASLGDRVSITCRASHDISNWLAWYQQKPGKAPKLLIYLASTLESGVPSRFSGSGSGTEFTVTISSLQPDDFATYYCQQFHSYPYSFGQGTKLEIK
B12: BD56-1601 (protein)
chain 1: QVQLVQSGAEVKKPGASVKVSCKASGYTFINYGISWVRQAPGQGLEWMGWISAYNGHTNYAQKFQGRVTMTTGTSPSTAYMELRSLRVDDTAVYYCARDSGQSDYYNEGSGTFDYWGQGTRVTVSS
chain 2: SYELTQPSSVSVSPGQTARISCSGDVLAKRYARWFRQQPGQAPVLVIYKDSQRPSGIPERFSGSSSGTTVTLTISGAQVEDEADYFCYCEADNNERVFGGGTKLTVL

Target: SARS-CoV-2 Omicron BA.1 spike pseudovirus
Test: pseudovirus neutralization IC50; higher = weaker neutralization
Experimental: (§1)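 Single-round VSV luciferase pseudovirus mixed with antibody dilutions for 1 h and put on Huh-7 cells for about a day; IC50 from the dose curve.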

Binder	pseudovirus neutralization IC50 [µg/mL]
B1	> 10
B2	> 10
B3	> 10
B4	> 10
B5	> 10
B6	> 10
B7	> 10
B8	0.353
B9	1.07
B10	0.0941
B11	0.0064
B12	> 10

Target: SARS-CoV-2 Omicron BA.2 spike pseudovirus
Test: as above
Experimental: as §1

Binder	pseudovirus neutralization IC50 [µg/mL]
B1	> 10
B2	> 10
B3	> 10
B4	> 10
B5	> 10
B6	> 10
B7	> 10
B8	0.598
B9	1.11
B10	0.00136
B11	0.00185
B12	> 10

Target: SARS-CoV-2 Omicron BA.2.75 spike pseudovirus
Test: as above
Experimental: as §1

Binder	pseudovirus neutralization IC50 [µg/mL]
B1	> 10
B2	> 10
B3	> 10
B4	> 10
B5	> 10
B6	> 10
B7	> 10
B8	0.746
B9	0.5
B10	0.14
B11	0.00217
B12	> 10

Target: SARS-CoV-2 Omicron BA.5 spike pseudovirus
Test: as above
Experimental: as §1

Binder	pseudovirus neutralization IC50 [µg/mL]
B1	> 10
B2	> 10
B3	> 10
B4	> 10
B5	> 10
B6	> 10
B7	> 10
B8	0.962
B9	0.918
B10	0.000435
B11	> 10
B12	> 10

Target: SARS-CoV-2 Omicron BQ.1.1 spike pseudovirus
Test: as above
Experimental: as §1

Binder	pseudovirus neutralization IC50 [µg/mL]
B1	> 10
B2	> 10
B3	> 10
B4	> 10
B5	> 10
B6	> 10
B7	> 10
B8	4.71
B9	0.978
B10	> 10
B11	> 10
B12	> 10

Target: SARS-CoV-2 Omicron XBB spike pseudovirus
Test: as above
Experimental: as §1

Binder	pseudovirus neutralization IC50 [µg/mL]
B1	> 10
B2	> 10
B3	> 10
B4	> 10
B5	> 10
B6	> 10
B7	> 10
B8	5.59
B9	0.8
B10	1.39
B11	> 10
B12	> 10

Target: SARS-CoV-2 early D614G spike pseudovirus
Test: as above
Experimental: as §1

Binder	pseudovirus neutralization IC50 [µg/mL]
B1	> 10
B2	> 10
B3	> 10
B4	1.15
B5	> 10
B6	0.0249
B7	0.0031
B8	> 10
B9	1.6
B10	0.0443
B11	0.00288
B12	2.04
